Results of unrelated studies side by side (data: NIAID ChemDB).

All rows: enzyme or target tests

An empty or dashed field is not shown.

compound,dose,protein,read by,species,measure,strain or isolate,value
O=C1NC(=O)C2C(N1)N(C[C@H](O)[C@H](O)[C@H](O)CO)C(=O)N2CCCCCCOP(=O)(O)O,,Lumazine synthase,,Mycobacterium tuberculosis,Ki,,170 µM
O=C(Nc1ccccc1)N1CCc2c(c(-c3ccccc3)nn2Cc2cn(-c3ccccc3F)nn2)C1,,Pantothenate synthetase,absorbance,Mycobacterium tuberculosis,IC50,,5.93 µM
NC(=O)c1c(NC(=O)Nc2ccc3c(c2)OCO3)sc2c(Cl)c(O)ccc12,100 µM,Glucose-6-phosphate dehydrogenase (GPDH),absorbance,Mycobacterium tuberculosis,inhibition,,<1%
CO[C@H]1/C=C/O[C@@]2(C)Oc3c(C)c(O)c4c(=O)c(c5oc6cc(N7CCN(CC(C)C)CC7)cc(=O)c6nc5c4c3=C2O)NC(=O)/C(C)=C\C=C\[C@H](C)[C@H](O)[C@@H](C)[C@@H](O)[C@@H](C)[C@H](OC(C)=O)[C@@H]1C,10 µg/mL,DNA polymerase,,Mycobacterium fortuitum,inhibition,F-65,29%
Oc1cc(Cl)ccc1Oc1ccccc1,,Enoyl reductase,,Mycobacterium tuberculosis,Ki,,4.9 µM
O=c1[nH]c(=O)c2[nH]c(=O)n(C[C@H](O)[C@H](O)[C@H](O)CO)c2[nH]1,,Lumazine synthase,,Mycobacterium tuberculosis,Ki,,9.1 µM
Cn1cc(/C=C2/C(=O)N3C(C(=O)[O-])CSC23)nn1.[Na+],,Beta-lactamase,,Mycobacterium tuberculosis,IC50,TB2,0.0001 µg/mL
O=C(Nc1ccccc1)N1CCc2c(c(-c3ccccc3)nn2Cc2cn(-c3ccccc3Cl)nn2)C1,,Pantothenate synthetase,absorbance,Mycobacterium tuberculosis,IC50,,2.78 µM
O=c1[nH]c(=O)c2c([nH]1)n(C[C@H](O)[C@H](O)[C@H](O)CO)c(=O)c(=O)n2CCCCCOP(=O)(O)O,,Lumazine synthase,,Mycobacterium tuberculosis,Ki,,0.012 µM
CCn1cc(C(=O)Nc2cc(/C(C)=N\N=C(N)N)cc(/C(C)=N/N=C(N)N)c2)c(=O)c2ccc(C)nc21,10 µM,Protein kinase B,kinase activity / radiometric,Mycobacterium tuberculosis,inhibition,,99.6%
Cc1cn([C@@H]2O[C@H](CO)[C@H]3CNC(=O)O[C@H]32)c(=O)[nH]c1=O,,Thymidine monophosphate kinase,,Mycobacterium tuberculosis,Ki,H37Rv,13.5 µM
Cc1ccc(C(F)(F)F)cc1CNCc1cc(C(=N)C(C)C)c(Nc2ccccc2)[nH]c1=O,,Decaprenylphosphoryl-D-ribose oxidase,fluorescence,Mycobacterium tuberculosis,IC50,,<0.005 µM
COc1ccc(-c2cn(C[C@@H](O)COc3ccc4c(c3)OC3(CCN(C(=O)OC(C)(C)C)CC3)CC4=O)nn2)cc1,30 µM,DNA gyrase,gel,Mycobacterium tuberculosis,inhibition,,54%
C[C@H]1COC2(CCN(c3nc(=O)c4cc(C(F)(F)F)cc([N+](=O)[O-])c4s3)CC2)O1,,Cytochrome P450 2C9,fluorescence / absorbance,Mycobacterium tuberculosis,IC50,,4.99 µM
CCCCCc1ccc(-c2cn(C[C@@H](O)COc3ccc4c(c3)OC3(CCCCC3)CC4=O)nn2)cc1,30 µM,DNA gyrase,gel,Mycobacterium tuberculosis,inhibition,,46%
CCCCCCCCO[C@H]1O[C@H](CO[C@H]2O[C@H](CN(CC3CCCCC3)CC3CCCCC3)[C@@H](O)[C@@H]2O)[C@@H](O)[C@@H]1O,,Arabinofuranosyltransferase,,Mycobacterium tuberculosis,IC50,H37Ra,1560 µM
Oc1ccc2ccccc2c1Oc1ccccc1,,Enoyl reductase,,Mycobacterium tuberculosis,IC50,,>200 µM
CCc1ccc(-n2cc(Cn3nc(-c4ccccc4)c4c3CCN(C(=O)Nc3ccccc3)C4)nn2)cc1,,Pantothenate synthetase,absorbance,Mycobacterium tuberculosis,IC50,,2.56 µM
COc1cc(NCc2cnc3nc(N)nc(N)c3c2C)cc(OC)c1,,Dihydrofolate reductase,,Mycobacterium avium complex,IC50,,0.00064 µM
Oc1cc(F)ccc1Oc1ccccc1,,Enoyl reductase,,Mycobacterium tuberculosis,Ki,,13 µM
CC(=O)Nc1ccc(Nc2nc(-c3ccccn3)cs2)cc1,30 µM,DNA gyrase,gel,Mycobacterium tuberculosis,inhibition,,51%
NNC(=O)c1ccncc1,,NADH oxidase,,Mycobacterium tuberculosis,IC50,H37Rv,>1000 µM
O=C(Nc1ccccc1)N1CCc2c(c(-c3ccccc3)nn2Cc2cn(-c3cc(Cl)cc(Cl)c3)nn2)C1,,Pantothenate synthetase,absorbance,Mycobacterium tuberculosis,IC50,,4.76 µM
O=c1[nH]c(=O)n([C@H]2C[C@H](O)[C@@H](CO)O2)cc1Br,,Thymidylate kinase,,Mycobacterium tuberculosis,Ki,,5 µM
C=CC(C)(C)c1c(OC)oc(-c2ccccc2)cc1=O,100 µM,MurE,absorbance,Mycobacterium tuberculosis,inhibition,,7%
O=C(O)[C@H]1/C(=C/CO)O[C@@H]2CC(=O)N21,,Beta-lactamase,,Mycobacterium tuberculosis,IC50,TB3,0.05 µg/mL
O=C1NC(=O)C2C(N1)N(C[C@H](O)[C@H](O)[C@H](O)CO)C(=O)N2CCCOP(=O)(O)O,,Lumazine synthase,,Mycobacterium tuberculosis,Ki,,4.5 µM
C/C(=N/N=C(N)N)c1cc(NC(=O)C(F)(F)C(F)(F)C(F)(F)C(F)(F)C(F)(F)C(F)(F)C(F)(F)C(F)(F)C(=O)Nc2cc(/C(C)=N\N=C(N)N)cc(/C(C)=N\N=C(N)N)c2)cc(/C(C)=N\N=C(N)N)c1,,Protein kinase B,kinase activity / radiometric,Mycobacterium tuberculosis,IC50,,0.088 µM
O=c1[nH]c(=O)c2c([nH]1)n(C[C@H](O)[C@H](O)[C@H](O)CO)c(=O)n2CCCCP(=O)(O)O,,Lumazine synthase,,Mycobacterium tuberculosis,Ki,,0.0041 µM
COC(=O)[C@@H](NC(=O)N(C)CC(=O)N[C@H]1CCCCNC(=O)/C=C/[C@H](Cc2c[nH]c3ccccc23)NC1=O)C(C)C,,Proteasome,substrate cleavage / fluorescence,Mycobacterium tuberculosis,IC50,,89.57 µM
CCCOc1ccc(OCCC)c(NCc2cnc3nc(N)nc(N)c3c2C)c1,,Dihydrofolate reductase,,Mycobacterium avium complex,IC50,,0.01 µM
CCCCCCCCO[C@H]1O[C@H](CO[C@H]2O[C@H](CN=[N+]=[N-])[C@@H](O)[C@@H]2O)[C@@H](O)[C@@H]1O,,Arabinofuranosyltransferase,,Mycobacterium tuberculosis,IC50,H37Ra,2930 µM
Oc1ccccc1Oc1ccc(Oc2ccccc2O)cc1,,Enoyl reductase,,Mycobacterium tuberculosis,IC50,,>190 µM
Cc1c(Br)c(=O)n(C2CCCC2)c2nc(Nc3ccc(N4CCN(C)CC4)cc3)ncc12,,Protein kinase B,kinase activity / radiometric,Mycobacterium tuberculosis,IC50,,0.129 µM

Conditions beyond the fields shown may differ between rows. ICn is the concentration giving n% inhibition. Percent inhibition refers to the dose given; in toxicity tests it is the harm to the cells.